Pooled drug test results. Numbers come from NIAID ChemDB, via PubChem.

All rows: whole-cell or culture tests; agent: HIV-1

a–b is a range or a potency band.

compound	endpoint	method	cell line	conditions	changes	strain or isolate	result
CC(C)(C)NC(=O)[C@@H]1C[C@@H]2CCCC[C@@H]2CN1C[C@@H](O)[C@H](Cc1ccccc1)NC(=O)[C@H](CC(N)=O)NC(=O)c1ccc2ccccc2n1	EC90	-	CEM + CEM-SS	-	-	IIIB	0.022 µM
CC(C)C[C@@H]1[C@H](O)[C@@H](O)[C@@H](CC(C)C)N(Cc2cccc(C(=O)Nc3nc4ccccc4[nH]3)c2)C(=O)N1Cc1cccc(C(=O)Nc2nc3ccccc3[nH]2)c1	EC50	-	MT-2	3 d	-	RF	<0.059 µM
COc1ccc(Cc2ccccc2)cc1C(=O)CC(=O)C(=O)O	EC95	p24	MT-4	-	-	IIIB	0.3 µM
Cc1cn([C@H]2C[C@H](N=[N+]=[N-])[C@@H](CO)O2)c(=O)[nH]c1=O	EC50	p24	CEM	-	-	LAV	0.15 µM
COC(=O)C(C)CNP(=O)(OC[C@@H]1CC[C@H](n2cc(C)c(=O)[nH]c2=O)O1)Oc1ccc(Br)cc1	EC50	RT activity	CEM(TK-) + CEM TK-	-	-	-	22.8 µM
CC(C)(C)[Si](C)(C)OCC1OC(n2nncc2C(=O)NC2CCC2)C(O[Si](C)(C)C(C)(C)C)C12OS(=O)(=O)C=C2N	EC50	cytopathic effect	CEM	-	-	IIIB	0.21 µM
COc1ccc(S(=O)(=O)N(CC2CCCC2)C[C@@H](O)[C@H](Cc2ccccc2)NC(=O)O[C@H]2CCOC2)cc1	EC90	-	CEM + CEM-SS	-	-	IIIB	0.023 µM
O=C(Nc1nc2ccccc2[nH]1)c1cccc(CN2C(=O)N(Cc3cccc(C(=O)Nc4nc5ccccc5[nH]4)c3)[C@H](Cc3ccc(OCc4ccccc4)cc3)[C@H](O)[C@@H](O)[C@H]2Cc2ccc(OCc3ccccc3)cc2)c1	EC50	-	MT-2	3 d	-	RF	<0.125 µM
Cc1cn([C@H]2C=C[C@@H](CO)O2)c(=O)[nH]c1=O	EC50	RT activity	PBMC	-	-	-	0.04 µM
C=CCN1C(=S)S/C(=C\c2ccc(-c3ccccc3)o2)C1O	EC50	PCR	HEK 293	-	-	YU2	0.5–1 µM
O=c1cc(O)c2ccccc2o1	EC50	p24 / ELISA	ACH-2/HIV-1 + ACH2	-	-	-	10 µM
O=C(O)C(=O)CC(=O)c1cccc(Cc2ccccc2)c1	EC50	p24	MT-4	-	-	IIIB	<0.8 µM
Cc1ccnc2c1NC(=O)c1cccnc1N2C1CC1	EC95	-	MT-4	-	RT-L74V K101E	-	1.5 µM
CCNC(=O)c1cnnn1C1OC(CO[Si](C)(C)C(C)(C)C)C2(OS(=O)(=O)C=C2N)C1O[Si](C)(C)C(C)(C)C	EC50	cytopathic effect	CEM	-	-	IIIB	0.13 µM
Cc1c(O)cccc1C(=O)N[C@@H](CSc1ccccc1)[C@H](O)CN1C[C@H]2CCCC[C@H]2C[C@H]1C(=O)NC(C)(C)C	EC50	p24	PBMC	-	-	14a-Pre	0.0491 µM
COC(=O)C(C)CNP(=O)(OC[C@@H]1CC[C@H](n2cc(C)c(=O)[nH]c2=O)O1)Oc1ccc(Cl)cc1	EC50	RT activity	PBMC	-	-	-	2.1 µM
N#Cc1ccc(Nc2nc(Oc3ccc(-c4ccc(C#N)cc4)cc3C#N)c3sccc3n2)cc1	EC50	MTT	MT-4	-	-	IIIB	0.0702 µM
CC(C)(C)NC(=O)[C@@H]1CN(Cc2cccnc2)CCN1C[C@@H](O)C[C@@H](Cc1ccccc1)C(=O)N[C@H]1c2ccccc2C[C@H]1O	EC50	cytopathic effect / XTT	MT-2	-	-	IIIB	0.004 µM
CC[C@@H]1[C@H](O)[C@@H](O)[C@@H](CC)N(Cc2cccc(C(=O)Nc3nc4ccccc4[nH]3)c2)C(=O)N1Cc1cccc(C(=O)Nc2nc3ccccc3[nH]2)c1	EC90	-	MT-2	3 d	-	RF	0.57 µM
CCCCC#CCSc1ccccc1OC(C)=O	EC50	-	MT-2	-	RT-M41L T215F	41+215Y AZT-resistant (RT-M41L T215F)	2.1 µM
Cc1cn([C@H]2C[C@H](N=[N+]=[N-])[C@@H](COC(=O)CNC(=O)c3cnccn3)O2)c(=O)[nH]c1=O	EC50	cytopathic effect / XTT	CEM	-	-	-	>0.064 µM
C[C@H]1CC[C@H](O)[C@H]2CN1C(=O)c1c(O)c(=O)c(C(=O)NCc3c(F)cc(F)cc3F)cn12	EC50	luminescence	MT-4	-	-	IIIB	0.018 µM
CC(C)(C)[Si](C)(C)OCC1OC(n2nncc2C(=O)NC2CC2)C(O[Si](C)(C)C(C)(C)C)C12OS(=O)(=O)C=C2N	EC50	cytopathic effect	CEM	-	-	IIIB	0.08 µM
Cc1cnnn1[C@H]1C[C@H](n2ccc(=O)[nH]c2=O)O[C@@H]1CO	EC50	RT activity	PBMC	-	-	LAV	>100 µM
Cc1cn([C@H]2C[C@H](N=[N+]=[N-])[C@@H](CO)O2)c(=O)[nH]c1=O	EC50	RT activity	PBMC	-	-	LAV	0.01 µM
Cc1cc(-c2ccc(C#N)cc2)cc(C)c1Oc1nc(Nc2ccc(C#N)cc2)nc2ccsc12	EC50	MTT	MT-4	-	L100I	IIIB	0.0232 µM
c1cc(CN2CCCNCCNCCCNCC2)ccc1CN1CCCNCCNCCCNCC1	EC50	p24	PBMC	-	-	NL4-3	0.003 µg/mL
Cc1cn([C@H]2CC[C@@H](CO)O2)c(=O)[nH]c1=O	EC50	RT activity	CEM(TK-) + CEM TK-	-	-	-	91.2 µM
Cc1cn([C@H]2C=C[C@@H](CO)O2)c(=O)[nH]c1=O	EC50	cytopathic effect / XTT	MT-2	-	-	IIIB	8 µM
N#Cc1ccc(Nc2nc(Oc3ccc(-c4ccc(C#N)cc4)cc3[N+](=O)[O-])c3sccc3n2)cc1	EC50	MTT	MT-4	-	-	RES056	>219 µM
CCCCCC[C@@H]1[C@H](O)[C@@H](O)[C@@H](Cc2ccccc2)N(Cc2cccc(C(=O)Nc3nc4ccccc4[nH]3)c2)C(=O)N1Cc1cccc(C(=O)Nc2nc3ccccc3[nH]2)c1	EC50	-	MT-2	3 d	PR-I84V V82F	RF	<0.024 µM
O=C(O)C(=O)CC(=O)c1cccc(Cc2cccc(F)c2)c1	EC95	p24	MT-4	-	-	IIIB	2.5 µM
CC(C)(C)[Si](C)(C)OCC1OC(n2nncc2C(=O)NC2CCCC2)C(O[Si](C)(C)C(C)(C)C)C12OS(=O)(=O)C=C2N	EC50	cytopathic effect	CEM	-	-	IIIB	0.16 µM
Cc1cn([C@H]2C[C@H](N=[N+]=[N-])[C@@H](COC(=O)CN3CCN(c4cc5c(cc4F)c(=O)c(C(=O)O)cn5C4CC4)CC3)O2)c(=O)[nH]c1=O	EC50	cytopathic effect / XTT	CEM	-	-	-	1.87 µM
Cc1nnn([C@H]2C[C@H](n3cc(C)c(=O)[nH]c3=O)O[C@@H]2CO)c1C	EC50	RT activity	PBMC	-	-	LAV	>100 µM
Cc1ccnc2c1NC(=O)c1cccnc1N2C1CC1	EC50	MTT	MT-4	-	K103N	IIIB	>10.1 µM
Cc1c(O)cccc1C(=O)N[C@@H](CSc1ccccc1)[C@H](O)CN1C[C@H]2CCCC[C@H]2C[C@H]1C(=O)NC(C)(C)C	EC50	cytopathic effect / XTT	MT-2	-	-	IIIB	0.006 µM
CC[C@@H]1[C@H](O)[C@@H](O)[C@@H](Cc2ccccc2)N(Cc2cccc(C(=O)Nc3nc4ccccc4[nH]3)c2)C(=O)N1Cc1cccc(C(=O)Nc2nc3ccccc3[nH]2)c1	EC50	-	MT-2	3 d	-	RF	<0.026 µM

The last 5 rows once more:

compound	endpoint	method	cell line	conditions	changes	strain or isolate	result
Cc1cn([C@H]2C[C@H](N=[N+]=[N-])[C@@H](COC(=O)CN3CCN(c4cc5c(cc4F)c(=O)c(C(=O)O)cn5C4CC4)CC3)O2)c(=O)[nH]c1=O	EC50	cytopathic effect / XTT	CEM	-	-	-	1.87 µM
Cc1nnn([C@H]2C[C@H](n3cc(C)c(=O)[nH]c3=O)O[C@@H]2CO)c1C	EC50	RT activity	PBMC	-	-	LAV	>100 µM
Cc1ccnc2c1NC(=O)c1cccnc1N2C1CC1	EC50	MTT	MT-4	-	K103N	IIIB	>10.1 µM
Cc1c(O)cccc1C(=O)N[C@@H](CSc1ccccc1)[C@H](O)CN1C[C@H]2CCCC[C@H]2C[C@H]1C(=O)NC(C)(C)C	EC50	cytopathic effect / XTT	MT-2	-	-	IIIB	0.006 µM
CC[C@@H]1[C@H](O)[C@@H](O)[C@@H](Cc2ccccc2)N(Cc2cccc(C(=O)Nc3nc4ccccc4[nH]3)c2)C(=O)N1Cc1cccc(C(=O)Nc2nc3ccccc3[nH]2)c1	EC50	-	MT-2	3 d	-	RF	<0.026 µM

ECn is the concentration giving n% inhibition of infection, replication or growth. Blank or dashed fields: not listed here. Lines come from different laboratories, so protocols vary.